The source of these data is ChEMBL document CHEMBL4011630 (J Med Chem, 2017).

The assay is filed under the species Rattus norvegicus. Briefly: Selectivity ratio of IC50 for rat alpha6/alpha3beta4 nACHR expressed in xenopous laevis oocyte to IC50 for rat alpha3beta4 nACHR expressed in xenopous laevis oocyte.

As for `CC(C)C[C@@H]1NC(=O)[C@H](CCC(=O)O)NC(=O)[C@@H]2CCCN2C(=O)[C@H](Cc2cnc[nH]2)NC(=O)[C@H](CC(N)=O)NC(=O)[C@H](C(C)C)NC(=O)[C@H](CO)NC(=O)[C@@H]2CSSC[C@H](NC(=O)CN)C(=O)N[C@@H](CSSC[C@@H](C(N)=O)NC1=O)C(=O)N[C@@H](CO)C(=O)N[C@@H](Cc1cnc[nH]1)C(=O)N1CCC[C@H]1C(=O)N[C@@H](C)C(=O)N2`, the Ratio IC50 worked out at 0.099.
